Measured values published in the supplement of paper PMC9931576.
Human monoclonal antibodies against the spike receptor-binding domain (heavy:light variable regions). IC50 against pseudoviruses bearing the spike of naturally observed variants; lower = stronger; >10 µg/ml means not reached at the top dose. No active / inactive call. The stated detection limit is 0.0005 µg/ml; values near or below 0.001 µg/ml lie at the floor of the assay.

Columns and labels:
Experiment in all cases: pseudovirus neutralization IC50; higher = weaker neutralization
[1] = molecular target: SARS-CoV-2 Omicron BA.1 spike pseudovirus
Protocol: (§1)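 Single-round VSV luciferase pseudovirus mixed with antibody dilutions for 1 h and put on Huh-7 cells for about a day; IC50 from the dose curve.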

[2] = molecular target: SARS-CoV-2 Omicron BA.2 spike pseudovirus
Protocol: as §1

[3] = molecular target: SARS-CoV-2 Omicron BA.2.75 spike pseudovirus
Protocol: as §1

[4] = molecular target: SARS-CoV-2 Omicron BA.5 spike pseudovirus
Protocol: as §1

[5] = molecular target: SARS-CoV-2 Omicron BQ.1.1 spike pseudovirus
Protocol: as §1

[6] = molecular target: SARS-CoV-2 Omicron XBB spike pseudovirus
Protocol: as §1

[7] = molecular target: SARS-CoV-2 early D614G spike pseudovirus
Protocol: as §1

Measured: pseudovirus neutralization IC50

B1: BD55-5974 (protein)
chain 1: EVQLVQSGAEVKKPGESLKISCKGSGYSFTSYWIGWVRQMPGKGLEWMGIVYPGDSDIKYSPPFQGQVTISADQSISTAYLQWSSLKASDTAIYYCARRHYFASGSSRGDFDYWGQGTLVTVSS
chain 2: QSVLTQPPSASGTPGQRVTISCSGSTSNIGSDSVHWYQQFPGTAPKLLIYGDDQRPSGVPDRFTGSKSGTSASLAISGLQSEDEADYYCAAWDDSLNGWVFGGGTKLTVL
> 10 µg/mL: [1] | [2] | [3] | [4] | [5] | [6] | [7]

B2: BD55-5993 (protein)
chain 1: QLRLQESGPGLAKPSETLSLTCTVSGGSISSRSYLWGWVRQPPGKRLEWIGSFQNTGSTHHNPSLKSRVTISVDTSKNQFSLKLSSVTAADTAIYYCARHGGGDFYFDYWGLGTLVTVSS
chain 2: DIQMTQSPSTLSASVGDRVTITCRASQSIHTWLAWYQQIPGKAPNLLIYKASILESGVSLRFSGSGSGTEFTLTISSLQPDDFATYYCQQYSTFYPTFGQGTKV
> 10 µg/mL: [1] | [2] | [3] | [4] | [5] | [6] | [7]

B3: BD55-6016 (protein)
chain 1: EVQLVESGGGLIQPGGSLRLSCAVSGFSMNSNYMTWVRQAAGKGLEWISVIYNGGGTYYADSVKGRFTISRDIPNNTLYLQMNSLRAEDTAVYYCARGKNYGDDWFDPWGQGTQVTVSS
chain 2: EIVLTQSPATLSLSPGDRATLSCRASQSDSRYLAWYQQKPGQAPRLLIYDVSNRATAIPARFSGSGSGTEFTLTISSLEPEDFAVYYCQQRNRWPPTFTFGQGTKLEIK
> 10 µg/mL: [1] | [2] | [3] | [4] | [5] | [6] | [7]

B4: BD55-6018 (protein)
chain 1: QEELVESGGGVVQPGRSLRLSCAASGFTFDSYGMHWVRQAPGKGLEWVAVIWYNENTKYYADSVKGRFTVSRDNSKNTLNLQMDSLRAEDTAVYYCTRIVIGHAFDVWGQGTMVTVSS
chain 2: DIQLTQSPSSLSASVGDRVTITCRASETIGNKLNWYQQRPGKAPKLLIYAASHLQSGVPSRFSARGSGTDFTLSISGLQPEDFATYYCQQSFSSPLTFTFGPGTKVDIK
> 10 µg/mL: [1] | [2] | [3] | [4] | [5] | [6] | [7]

B5: BD55-1141 (protein)
chain 1: QLQLQESGPGLVKPSEILSLTCTVSGGSVTSSSFYWGWIRQPPGKGLEWVGSVYYTGITYYSTSLKSRLTLAVDTSKNQFSLNLTSVTAADTAVYYCARLSRLVGPDLFDLWGQGTMVTVSS
chain 2: QSALTQPASVSGSRGQSITISCTGTSGDVGSNDLVSWYQQHPGKAPKLMIYEVTKRPSGVSNRFSGSKSGNTASLTISGLQAEDEADYYCCSYAGIPKRVFGGGTKLTVL
> 10 µg/mL: [1] | [2] | [3] | [4] | [5] | [6] | [7]

B6: BD55-6020 (protein)
chain 1: QITLKESGQTLVKPTQTLTLTCTFSGFSLNTRGVSVGWIRQPPGEAPEWLALIYWDDDTRYPPSLMSRVAITKDTSKNQVVLTMTNMAPVDTATYYCAHGVDDYDSNGYYAYYFDYWGQGTRVTVSS
chain 2: QSALTQPASVSGSPGQSITISCSVTSSDIDLYTYVSWFQHHPGKAPKLIIYNFTKRPSGVSPRFSGSKSGNTASLTLSGLQAEDEAYYYCSSYTGSSTFYVFGPGTKVTVL
> 10 µg/mL: [1] | [2] | [3] | [4] | [5] | [6] | [7]

B7: BD55-6025 (protein)
chain 1: QVQLVQSGAEVKKPGSSVKVSCKTSGGTFSSNAISWVRQAPGQGLEWLGRIIPIFGTSTYAQKFQGRVTMTADESTGTAYMELSSLTSEDTAVYYCGRAGVLGGAGSYYIVDYWGQGSLVTVSS
chain 2: NFMLTQPHSVSESPGKTVTISCARSSGSIDSDYVQWYQQRPGSAPTTVIYEHNQTPSGVPDRFSGSIDSSSNSASLTISGLKTEDEADYYCQSYDSASQAWVFGGGTKVTVL
> 10 µg/mL: [1] | [2] | [3] | [4] | [5] | [6]
0.108 µg/mL: [7]

B8: BD55-6029 (protein)
chain 1: EVQLLQSGGGLVQPGGSLRLSCAASGFTFSSYAMSWLRQAPGKGLEWVSSITKSGDGTFYADSVKGRFTMSRDNSKSTLYLQINSLTAEDSAVYYCAKDQGSAWYDVFDMWGQGTMVTVSS
chain 2: DIQMTQSPSSLSASVGDRVTITCRASQYIRNYLNWYQQKPGKAPKLLIYAASSLQDGVPSRFSGSGSGTDFTLTINSLQPEDFATYYCQQSYNTPQLTFGGGTKVEIK
> 10 µg/mL: [1] | [2] | [3] | [4] | [5] | [6] | [7]

B9: BD55-6030 (protein)
chain 1: QVQLVESGGGVVQPGRSLRLSCAVSGFIFRSYAMHWVRQAPGKGLEWVATISYDGSNKYYADSMKGRFTISRDNSKNTLYLQMNSLRAEDTAVYYCAKDFVSSIGRGPYHYNFYALDVWGQGTAVTVSS
chain 2: NFMLTQPHSVSESPGKTVTISCTRSSGSIASNYVQWYQQRPGSSPTTLIFEDNQRPSGVSDRFSGSIDSSSNSASLTISGLQTDDEADYYCQSYDSDNLVFGGGTKLTVL
0.625 µg/mL: [7]
> 10 µg/mL: [1] | [2] | [3] | [4] | [5] | [6]

B10: BD55-1144 (protein)
chain 1: QLQLQESGPGLVKPSETLSLTCAVSGGSISSSQYYWVWIRQPPGKGLEWIGSIFYTGTTYYNASLNSRVTMSVDTSNNQFSLKLNSVTAADTAVYYCARQCPFFYDSSDYSTGSFDLWGQGTMVTVSS
chain 2: QSALTQPASVSGSPGQSITISCTGTSSDVGSYNLVSWYQHHPAKAPKLLIYEVTKRPSGVSFRFSGSKSGNTASLTISGLQAEDEAEYYCCSFAGRSTFFGTGTKVTVL
> 10 µg/mL: [1] | [2] | [3] | [4] | [5] | [6] | [7]

B11: BD-507 (protein)
chain 1: EVQLVESGGGLIQPGGSLRLSCAASGLTVSSNYMNWVRQAPGKGLEWVSVIYSGGSTYYADSVKGRFTISRDNSKNMVYLQMNSLRAEDTAVYYCARDLVVYGMDVWGQGTTVIVSS
chain 2: DIQLTQSPSSLSASVGDRVTITCRASQGISSYLAWYQQKPGKAPKLLIYAASTLQSGVPSRFSGSGSGTDFTLTISSLQPEDVATYYCQQLNSNPPITFGPGTKVDIK
0.0565 µg/mL: [7]
> 10 µg/mL: [1] | [2] | [3] | [4] | [5] | [6]

B12: BD55-6033 (protein)
chain 1: QVQLVQSAAEVKKPGSSVRVSCKASGGTFSAYTINWVRQAPGQGLEWMGGIIPIFGTPNYAQKFQGRVTITADESTSTAYMELSSLRSEDTAVYYCARGDYGISVADSYFDYWGQGTLVTVSS
chain 2: EIVMTQSPATLSVSPGERATLSCRPSQSISSNLAWYQQKPGQAPRLLIYGASTRATGIPARFSGSASGTEFTLTISSLQSEDFAVYYCQQYNNWPPITFGQGTRLEIK
> 10 µg/mL: [1] | [2] | [3] | [4] | [5] | [6]
1.17 µg/mL: [7]
